Values from PubChem BioAssay AID504761 (Drosophila RNAi Screening Center, 2011).
The screen tested about 22,000 reagents; this is a random part of those that have a named target and a result. Of all reagents, 116 (0.52%) were called active. 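Calls depend on retest data that are not deposited; infection was ranked per plate without normalising between plates; the unit of the infection score is not given.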 Names joined by + are all predicted targets of the reagent. Not all columns of the deposit are shown. Not given: the amount of reagent, the time to read-out.

Screen: 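Genome-wide fly cell screen for genes dengue virus requires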 (primary screen)
System: D.Mel-2 cells from Drosophila
Reagent: long dsRNA against Drosophila genes
Challenge: infection with dengue virus type 2; dose and infection time not stated
Measurement: 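Cells stained for dengue envelope protein and imaged; percent of infected cells per well on duplicate plates, ranked by infection, with stained nuclei counted for cell number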
Direction: infection score: higher = more virus-infected cells
Rule for the call: 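Low infection ranks in the two replicates (chance level up to 0.065) followed by a retest with a 1.5-fold or larger significant decrease, p below 0.05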
Calls: active = confirmed: knock-down lowers infection; inactive = not picked or not confirmed

gene	amplicon	infection score, replicate 1	activity call
CG13010	DRSC19529	3.33	inactive
CG13010	DRSC27744	30.9	inactive
CG10510	DRSC11614	12.5	inactive
Nle	DRSC00763	6.86	inactive
CG13995	DRSC00907	2.1	inactive
CG13995	DRSC02327	16.9	inactive
CG13995	DRSC22767	1.35	inactive
CG13995	DRSC28023	15.1	inactive
beta'COP	DRSC03492	2.02	inactive
beta'COP	DRSC26650	5.18	inactive
CG34178 + CG34177	DRSC00351	3.34	inactive
E(spl)mgamma-HLH	DRSC16699	13.3	inactive
E(spl)mgamma-HLH	DRSC25532	3.23	inactive
PMP34	DRSC21939	3.76	inactive
Rab9D + Rab9Fa + Rab9E	DRSC19853	15.3	inactive
CG15225	DRSC23269	2.11	inactive
CG15225	DRSC29370	23.8	inactive
Cht2	DRSC08650	21.9	inactive
Cht2	DRSC24801	4.16	inactive
CG12011	DRSC08219	7.42	inactive
CG12011	DRSC27315	28.2	inactive
CG11786	DRSC14389	1.13	inactive
CG31626 + CG8677	DRSC21844	2.4	inactive
CG31626 + CG8677	DRSC25078	5.54	inactive

4 entries from above, set out differently.
| gene | amplicon | infection score, replicate 1 | activity call |
| --- | --- | --- | --- |
| Rab9D + Rab9Fa + Rab9E | DRSC19853 | 15.3 | inactive |
| CG15225 | DRSC23269 | 2.11 | inactive |
| CG15225 | DRSC29370 | 23.8 | inactive |
| Cht2 | DRSC08650 | 21.9 | inactive |
